## HIV-1 NL4-3 point mutations in integrase: replication capacity

Reference: Al-Mawsawi et al. 2014, doi:10.1186/s12977-014-0124-6.

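Random point mutant libraries of HIV-1 NL4-3, one for each of seven fragments, were passaged in CEM T lymphocytes. Sequencing gave the RC index: frequency after two rounds over frequency in the input plasmid.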

Protein: integrase of HIV-1 NL4-3, numbered from its first residue. The source prints no sequence; the chain below is taken from UniProt P12497, a closely related isolate, and fits the source at the 252 positions it covers.
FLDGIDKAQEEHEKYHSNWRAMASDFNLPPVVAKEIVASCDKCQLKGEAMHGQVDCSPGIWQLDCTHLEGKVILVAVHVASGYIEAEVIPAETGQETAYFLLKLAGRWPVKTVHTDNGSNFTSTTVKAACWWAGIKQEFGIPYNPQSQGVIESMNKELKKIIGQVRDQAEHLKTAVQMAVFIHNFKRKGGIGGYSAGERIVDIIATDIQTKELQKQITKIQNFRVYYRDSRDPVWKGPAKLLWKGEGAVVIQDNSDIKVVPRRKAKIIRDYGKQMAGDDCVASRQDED
"Other frame" gives the effect on an overlapping gene as the source lists it; other overlaps (genes, RNA elements) are not shown.

RC index: lower means poorer replication; rough cut-offs are 0.1 (lethal) and 0.2 (tolerated).
Each entry names the wild-type residue, its position and the residue put in its place.
An index over 1, which the authors read as above wild type, was rare (1.9% of all changes in the genome).
Base changes are numbered along pNL4-3.
Since each clone held several changes (about five per kb), neutral changes can read low.

* D288N (base G5091A, other frame Vif silent) -> 0.328
* F26L (base T4307G) -> 0.0835
* E152D (base A4685T) -> 0.0374
* Q137L (base A4639T) -> 0.0332
* K156E (base A4695G) -> 0.0568
* E138K (base G4641A) -> 0.604
* L74M (base T4449A) -> 0.0247
* I204T (base T4840C) -> 0.0661
* Y83F (base A4477T) -> 0.0353
* A196G (base C4816G) -> 0.0115
* K188T (base A4792C) -> 0.0382
* R199G (base A4824G) -> 0.0352
* L2F (base A4235T) -> 0.0568
* S147C (base A4668T) -> 0.0388
* N144S (base A4660G) -> 0.0554
* F1L (base T4232G) -> 0.0673
* E48V (base A4372T) -> 0.0566
* R107T (base G4549C) -> 0.0279
* R187I (base G4789T) -> 0.0899
* K14E (base A4269G) -> 0.0275
* F121Y (base T4591A) -> 0.0409
* D55N (base G4392A) -> 0.845
* N254D (base A4989G) -> 0.102
* K46E (base A4365G) -> 0.0402
* C56S (base G4396C) -> 0.0434
* K273E (base A5046G, other frame Vif silent) -> 0.0884
* A133S (base G4626T) -> 0.0733
* T124I (base C4600T) -> 0.191
* K186R (base A4786G) -> 0.0448
* K42N (base A4355T) -> 0.0244
* Y99F (base A4525T) -> 0.0358
* N27Y (base A4308T) -> 0.0870
* N120D (base A4587G) -> 0.0364
* A105E (base C4543A) -> 0.128
* C40R (base T4347C) -> 0.109
* D270E (base T5039A) -> 0.0533
* F1I (base T4230A) -> 0.128
* K244N (base A4961T) -> 0.0577
* A128S (base G4611T) -> 0.244
* D3Y (base G4236T) -> 0.117

A selection of 3 entries from above:

- I204T (base T4840C) -> 0.0661
- D55N (base G4392A) -> 0.845
- L74M (base T4449A) -> 0.0247